Anti-infective test results gathered from many reports (values: NIAID ChemDB through PubChem).

All rows: growth or infection tests; organism: Hepatitis B virus; measure: EC50

An empty or dashed field is not shown.

compound,strain or isolate,changes,cell line,method,value
CCc1cn(COCCO)c(=S)[nH]c1=O,Mutations L180M M204V,-,D88,-,40 µM
Cn1cc(S(=O)(=O)N[C@@H]2CCN(C(=O)C(=O)NCC(F)F)C2)c(F)c1C(=O)Nc1ccc(F)c(F)c1,-,-,HepAD38 cells,PCR,<0.1 µM
CNOCc1ccc(-n2c(=O)c3c(n4ncc(Cc5ccccc5)c24)CN(C(=O)c2ccc(Br)c(C(F)(F)F)c2)CC3)cc1,-,-,HepG2.117,luminescence,≤0.05 µM
CNS(=O)(=O)N1CC[C@@H](NS(=O)(=O)c2c(F)c(C(=O)Nc3ccc(F)c(F)c3)n3c2CCC3)C1,-,-,HepAD38 cells,PCR,0.1–0.3 µM
O=C(NCc1ccccc1)C1=C2CN(C(=O)c3ccc(Br)c(Cl)c3)CCN2C(=O)C1c1ccc(-c2ncc[nH]2)cc1,-,-,HepG2.117,PCR,0.5–5 µM
Cc1cc(NC(=O)c2c3c(cn2C)S(=O)(=O)NC2CN(C(=O)C(=O)NC4CC4)CCC2CO3)ccc1F,-,-,HepAD38,PCR,<0.5 µM
C[C@]1(CO)CO[C@@H](n2cnc3c(=O)[nH]c(F)nc32)C1,-,-,-,-,>100 µM
CC(C)CCN(c1ccc(N2CCOCC2)cc1)c1ncnc2ccc(I)cc12,-,-,HUH 9B,replicon,1–5 µM
Cn1cc2c(c1C(=O)Nc1cc(F)c(F)c(F)c1)OC[C@@H]1CN(C(=O)C(=O)NC3(C)COC3)C[C@@H]1NS2(=O)=O,-,-,HepG2,PCR,<0.5 µM
O=c1[nH]c(=O)n(COCCO)cc1Cl,Mutations L180M M204V,-,D88,-,70 µM
Nc1nc(=O)c2ncn([C@@H]3O[C@H](CO)[C@@H](O)[C@H]3O)c2c(=O)[nH]1,-,-,2.2.15,antigen,>10 µM
CC(C)Oc1ccc(-n2c(-c3ncc(Cc4ccccc4)s3)c3n(c2=O)CCN(C(=O)c2ccc(Br)c(Cl)c2)C3)cc1,-,-,HepG2.117,PCR,>0.5 µM
Cn1cc(OC(=O)Nc2ccc3c(C(=O)Nc4ccc(F)c(Cl)c4)n(C)nc3c2)cn1,-,-,HepAD38,PCR,>1000 µM
Cn1cc2c(c1C(=O)Nc1ccc(F)c(Cl)c1)OCC1(CCN(C(=O)C(=O)NCC(F)(F)F)CC1)NS2(=O)=O,Genotype D,-,HepAD38,PCR,<0.5 µM
COC(C)C(=O)Nc1ccc(-c2nc3cccnc3o2)cc1,-,-,Primary human hepatocytes (PHH),antigen / luminescence,1.61 µM
C[C@H]1Cc2c(n3ncc(CC4CC4)c3n(-c3ccc(-c4nc(=O)on4C)cc3)c2=O)CN1C(=O)c1ccc(Br)c(C(F)(F)F)c1,-,-,HepG2.117,luminescence,≤0.05 µM
Cc1cc(=O)[nH]c(=O)n1COCCO,Mutation M204I,-,B1,-,30 µM
O=C(NC1CC2(C1)CN(c1nc3cc(Cl)ccc3o1)C2)c1ccc(S(=O)(=O)C2CC2)o1,-,-,Primary human hepatocytes (PHH),antigen / luminescence,2.729 µM
CC(C)(C)OC(=O)NCc1cccc(-c2ccc3ncnc(Nc4ccc(N5CCOCC5)cc4)c3c2)c1,-,-,HUH 9B,replicon,1–5 µM
CCOC(=O)C1=C(CN2CC(F)(F)[C@@H]3[C@H]2CON3C[C@H](O)C(C)(C)C(=O)O)NC(c2nc(C)cs2)=N[C@H]1c1cccc(F)c1C,-,-,HepG2.2.15,PCR,0.0425 µM
Cc1ccccc1-c1ccc2ncnc(Nc3ccc(N4CCOCC4)cc3)c2c1,-,-,HUH 9B,replicon,1–5 µM
O=C(NCc1ccccc1)c1c2n(c(=O)n1-c1ccccc1Cl)CCN(C(=O)c1ccc(Br)c(Cl)c1)C2,-,-,HepG2.117,PCR,0.5–5 µM
CS(=O)(=O)C1(c2cccc(C(=O)NC34CC(c5nc(-c6ccc(Cl)cc6)no5)(C3)C4)n2)CC1,-,-,Primary human hepatocytes,antigen / luminescence,0.72 µM
Cn1nc2cc(NS(=O)(=O)c3cnn(CCc4ccccc4)c3)ccc2c1C(=O)Nc1ccc(F)c(Cl)c1,-,-,HepAD38,PCR,100–1000 µM
C[C@]1(CO)CO[C@@H](n2cnc3c(=O)[nH]cnc32)C1,-,-,-,-,>100 µM
CNC(=O)c1cnc(-n2c(=O)c3c(n4ncc(Cc5ccccc5)c24)CN(C(=O)c2ccc(Br)c(C(F)(F)F)c2)[C@H](C)C3)cn1,-,-,HepG2.117,luminescence,≤0.05 µM
COc1ccc(-n2c(C(=O)NCc3ccc(F)c(OC)c3)c3n(c2=O)CCN(C(=O)c2ccc(Cl)c(Cl)c2)C3)cc1,-,-,HepG2.117,PCR,0.5–5 µM
CN(C)S(=O)(=O)N1CC[C@@H](NS(=O)(=O)c2cn(C)c(C(=O)Nc3ccc(F)c(F)c3)c2F)C1,-,-,HepAD38 cells,PCR,<0.1 µM
Cn1nc2cc(S(=O)(=O)NCc3ccccc3)ccc2c1C(=O)Nc1ccc(F)c(Cl)c1,-,-,HepAD38,PCR,100–1000 µM
CNc1n[nH]c2cc(-n3c(=O)c4c(n5ncc(CC(C)C)c35)CN(C(=O)c3ccc(Br)c(C(F)(F)F)c3)[C@@H](C)C4)ccc12,-,-,HepG2.117,luminescence,0.05–0.5 µM
C[C@H](NC(=O)C(=O)N1CCC2(COc3c(c(Cl)n(C)c3C(=O)Nc3ccc(F)c(F)c3)S(=O)(=O)N2)C1)C(F)(F)F,Genotype D,-,HepAD38,PCR,<0.5 µM
CCOC(=O)C1=C(CN2CC(F)(F)[C@@H]3[C@H]2CON3CCC(C)(F)C(=O)O)NC(c2nccs2)=N[C@H]1c1cccc(F)c1C,-,-,HepG2.2.15,PCR,0.26 µM
C[C@]1(CO)CO[C@H](n2ccc(N)nc2=O)C1,-,-,-,-,>100 µM
C[C@@H](NC(=O)C(=O)N1C[C@H]2COc3c(c(Cl)n(C)c3C(=O)Nc3ccc(F)c(F)c3)S(=O)(=O)N[C@H]2C1)C(F)(F)F,-,-,HepAD38,PCR,<0.5 µM
COc1cccc(-n2cc(S(=O)(=O)Nc3ccc4c(C(=O)Nc5ccc(F)c(Cl)c5)n(C)nc4c3)cn2)n1,-,-,HepAD38,PCR,100–1000 µM
C[C@@H](NC(=O)C(=O)N1CC[C@]2(COc3c(cn(C)c3C(=O)Nc3ccc(F)c(C(F)F)c3)S(=O)(=O)N2)C1)C(F)(F)F,Genotype D,-,HepAD38,PCR,<0.5 µM
Cc1cc(NC(=O)c2c3c(cn2C)S(=O)(=O)N[C@H]2CN(C(=O)C(=O)N[C@H](C)C(F)(F)F)C[C@H]2CO3)ccc1F,-,F23Y,HepG2,PCR,0.00633 µM
Cc1cc(Nc2ncnc3ccc(-c4cccs4)cc23)ccc1N1CCOCC1,-,-,HUH 9B,replicon,<1 µM
COc1cc(C(=O)NC2CC3(C2)CN(c2nc4cc(Cl)ccc4o2)C3)ccn1,-,-,Primary human hepatocytes (PHH),antigen / luminescence,6.89 µM
Nc1cn(COCCO)c(=O)[nH]c1=O,Mutation M204I,-,B1,-,30 µM
CCNC(=O)C(=O)N1CC[C@@H](NS(=O)(=O)c2c(F)c(C(=O)Nc3cc(F)c(F)c(F)c3)n3c2CCC3)C1,-,-,HepAD38 cells,PCR,<0.1 µM
Cc1csc(-c2ccc3ncnc(Nc4ccc(N5CCOCC5)cc4)c3c2)c1,-,-,HUH 9B,replicon,1–5 µM
C[C@H](NC(=O)C(=O)N1CCC2(CC1)COc1c(cn(C)c1C(=O)Nc1ccc(F)c(C(F)F)c1)S(=O)(=O)N2)C(F)(F)F,Genotype D,-,HepAD38,PCR,<0.5 µM
CC(C)(C)OC(=O)Nc1cccc(-c2ccc3ncnc(Nc4ccc(N5CCOCC5)cc4)c3c2)c1,-,-,HUH 9B,replicon,1–5 µM
CCOC(=O)C1=C(CN2CC(F)(F)[C@@H]3[C@H]2CON3C[C@H](F)C(C)(C)C(=O)O)NC(c2nccs2)=N[C@H]1c1cccc(F)c1C,-,-,HepG2.2.15,PCR,0.0225 µM
CC(C)(c1cccc(C(=O)NC23CC(c4nc(-c5ccc(Cl)cc5)no4)(C2)C3)c1)S(C)(=O)=O,-,-,Primary human hepatocytes,antigen / luminescence,0.47 µM
Cn1nc2cc(S(=O)(=O)NCC3CN(C(=O)OC(C)(C)C)C3)ccc2c1C(=O)Nc1ccc(F)c(Cl)c1,-,-,HepAD38,PCR,100–1000 µM
CC(C)Cc1cnn2c3c(c(=O)n(-c4ccc5c(c4)nnn5CCO)c12)C[C@@H](C)N(C(=O)c1ccc(Br)c(C(F)(F)F)c1)C3,-,-,HepG2.117,luminescence,≤0.05 µM
CCOC(=O)C1=C(CN2CC(F)(F)[C@H]3[C@@H]2CCN3C[C@@H](F)C(C)(C)C(=O)O)NC(c2nc(C)cs2)=N[C@H]1c1ccc(F)c(F)c1F,-,-,HepG2.2.15,PCR,0.003 µM
C[C@]1(CO)CO[C@H](n2cnc3c(N)ncnc32)C1,-,-,-,-,>100 µM
C[C@@H](NC(=O)c1c2n(c(=O)n1-c1ccc(OCC(F)(F)F)cc1)CCN(C(=O)c1ccc(Br)c(Cl)c1)C2)c1ccc(OC(F)F)cc1F,-,-,HepG2.117,PCR,0.5–5 µM
CCOC(=O)c1cccc(NC(=O)c2ccc3ncnc(Nc4ccc(N5CCOCC5)cc4)c3c2)c1,-,-,HUH 9B,replicon,1–5 µM
O=C(N/C(C(=O)N1CCCCC1)=C(/Cl)c1ccccc1)c1ccccc1,-,-,HepG2,-,2.9 µM
C[C@H](NC(=O)c1c2n(c(=O)n1-c1ccc(OCC(F)(F)F)cc1)CCN(C(=O)c1ccc(Br)c(Cl)c1)C2)c1ccc(O[C@H](C)C(N)=O)cc1F,-,-,HepG2.117,PCR,0.1–0.5 µM
Cn1nc2cc(NS(C)(=O)=O)ccc2c1C(=O)Nc1ccc(F)c(Cl)c1,-,-,HepAD38,PCR,100–1000 µM
C[C@@H]1Cc2c(n3ncc(Cc4ccccc4)c3n(-c3ccc(-n4ccc(C(F)(F)F)n4)cc3)c2=O)CN1C(=O)c1ccc(Br)c(C(F)(F)F)c1,-,-,HepG2.117,luminescence,0.05–0.5 µM
COC(=O)C1=C(CN2CC(F)(F)[C@@H]3[C@H]2CON3C[C@H](OC)C(C)(C)C(=O)O)NC(c2nccs2)=N[C@H]1c1cccc(F)c1Cl,-,-,HepG2.2.15,PCR,0.033 µM
Cn1nc2cc(NCS(=O)(=O)NCCOCCOCCO)ccc2c1C(=O)Nc1ccc(F)c(Cl)c1,-,-,HepAD38,PCR,100–1000 µM
CNC(=O)c1cc(-n2c(=O)c3c(n4ncc(CC(C)C)c24)CN(C(=O)c2ccc(Br)c(C(F)(F)F)c2)[C@@H](C)C3)nn1C,-,-,HepG2.117,luminescence,≤0.05 µM
CS(=O)(=O)C1(c2ncc(C(=O)NCCC3(c4ncc(-c5ccc(Cl)cc5)s4)CCC3)o2)CC1,-,-,Primary human hepatocytes,antigen / luminescence,0.09 µM
CN(c1cnn(C)c1)S(=O)(=O)Nc1ccc2c(C(=O)Nc3ccc(F)c(Cl)c3)n(C)nc2c1,-,-,HepAD38,PCR,100–1000 µM
CS(=O)(=O)C1(c2cc(C(=O)NC34CC(c5nc(-c6ccc(Cl)cc6)no5)(C3)C4)ccn2)CC1,-,-,Primary human hepatocytes,antigen / luminescence,0.77 µM
CCOC(=O)C1=C(CN2CC(F)(F)[C@@H]3[C@H]2CON3CC[C@@](C)(OC)C(=O)O)NC(c2nccs2)=N[C@H]1c1ccc(F)c(F)c1Cl,-,-,HepG2.2.15,PCR,0.026 µM

Rows are shuffled and stem from different studies. Two numbers with a dash give a range or band. ECn: concentration that inhibits the pathogen or its effect by n%.